## DMS reactivity of the HIV-1 5' RNA in monomer and dimer

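Randomly mutated transcripts starting with one, two or three G (1G, 2G, 3G), capped or uncapped, were folded for 30 min at 37 °C. High salt was 300 mM KCl and 5 mM MgCl2, low salt 40 mM KCl and 0.1 mM MgCl2; monomer and dimer were parted on a native gel. Gel slices were treated with 170 mM dimethyl sulfate for 15 min at 37 °C and read by mutational profiling against an ethanol control.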

Sequence of the HIV-1 NL4-3 5' RNA, positions 1 to 437, as numbered in the source:
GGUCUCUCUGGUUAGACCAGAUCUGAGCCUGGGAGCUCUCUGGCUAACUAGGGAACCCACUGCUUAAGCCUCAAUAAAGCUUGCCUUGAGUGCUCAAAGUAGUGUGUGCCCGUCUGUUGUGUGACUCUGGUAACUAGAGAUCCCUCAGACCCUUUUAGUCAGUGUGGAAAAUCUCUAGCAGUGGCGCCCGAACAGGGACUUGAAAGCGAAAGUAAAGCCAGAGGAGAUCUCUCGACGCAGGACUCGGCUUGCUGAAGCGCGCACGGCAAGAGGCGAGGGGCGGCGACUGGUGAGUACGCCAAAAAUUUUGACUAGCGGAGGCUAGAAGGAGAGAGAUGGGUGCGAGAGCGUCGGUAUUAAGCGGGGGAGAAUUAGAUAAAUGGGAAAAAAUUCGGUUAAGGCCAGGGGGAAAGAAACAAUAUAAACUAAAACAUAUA

Values are winsor-normalised DMS reactivities of A and C; higher means more reactive, usually unpaired.
One numbering serves 1G, 2G and 3G.
A position is written with its base.

position	domain	1G capped high-salt dimer	1G capped high-salt monomer
A19	TAR	0.04	0.04
A21	TAR	0.57	0.57
C23	TAR	1.11	1.26
A26	TAR	0.25	0.14
C28	TAR	0.06	0.04
C29	TAR	0.12	0.11
A34	TAR	1.00	1.08
C36	TAR	0.07	0.04
C38	TAR	0.04	0.04
C40	TAR	0.04	0.04
C44	TAR	0.04	0.04
A46	TAR	0.09	0.05
A47	TAR	0.22	0.17
C48	TAR	0.14	0.07
A50	TAR	0.25	0.19
A54	TAR	0.22	0.18
A55	TAR	0.44	0.45
C56	TAR	0.16	0.19
C57	TAR	0.50	0.68
C58	PolyA	0.10	0.21
A59	PolyA	0.33	0.42
C60	PolyA	0.10	0.22
C63	PolyA	0.04	0.10
A66	PolyA	1.07	1.00
A67	PolyA	0.52	0.64
C69	PolyA	0.04	0.04
C70	PolyA	0.04	0.04
C72	PolyA	0.19	0.12
A73	PolyA	0.04	0.04
A74	PolyA	0.64	0.75
A76	PolyA	0.26	0.27
A77	PolyA	0.74	0.79
A78	PolyA	0.64	0.74
C80	PolyA	0.42	0.39
C84	PolyA	0.74	0.58
C85	PolyA	0.43	0.34
A89	PolyA	0.40	0.53
C93	PolyA	0.04	0.04
C95	PolyA	0.54	0.55
A96	PolyA	0.26	0.26
A97	PolyA	0.33	0.42
A98	PolyA	0.30	0.37
A101	PolyA	0.16	0.18
C109	U5	0.23	0.21
C110	U5	0.19	0.21
C111	U5	0.25	0.33
C114	none	0.29	0.26
A124	none	0.93	1.01
C125	PAS	0.10	0.10
C127	PAS	0.04	0.04
A132	PBS	0.59	0.54
A133	PBS	1.54	1.52
C134	PBS	0.15	0.16
A136	PBS	0.10	0.11
A138	PBS	0.11	0.13
A140	PBS	0.32	0.42
C142	PBS	0.08	0.08
C143	PBS	0.04	0.04
C144	PBS	0.04	0.04
C146	PBS	0.12	0.13
A147	PBS	0.46	0.45
A149	PBS	0.07	0.11
C150	PBS	0.04	0.07

Reference: Ye et al. 2022, doi:10.1038/s41594-022-00746-2.